Reference: PubChem BioAssay AID624268 (The Scripps Research Institute Molecular Screening Center, 2012)
This is a selection; strong and weak results do not stand in their true shares. Some structures show a salt or complex split into parts, the way the source records it. Active and inactive are the calls of the source.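 Rule for the calls: active = inhibition above a per-plate cutoff of the control wells' mean inhibition plus 3 SD (cut at about 5.5% in these data); inactive = the rest.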

test system: methionyl-tRNA synthetase (Trypanosoma brucei brucei); experiment: inhibition of trypanosome methionyl-tRNA synthetase – biochemical, luminescence, primary screen (AID 624268);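 note: 0% = DMSO wells median and 100% = median of wells with control inhibitor compound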; conditions: purified T. brucei MetRS, ATP depletion, Kinase-Glo luminescence; at 11.9 µM; hits give high values
Procedure, shortened: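 Test system – parasite MetRS enzyme · Reagent – substrates ATP, L-methionine and bulk Escherichia coli tRNA · Doses – 11.9 µM compound single dose, 0.9% DMSO · Times – 15 min enzyme-compound preincubation, 2 h reaction, 10 min detection, 25 °C · Signal – Kinase-Glo luminescence, ATP depletion format · Controls – DMSO-only wells as low control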

Compound	inhibition
O=[N+]([O-])c1ccc(OP2(=O)COCCO2)cc1 (stereo not given)	inactive: 0.45%
COc1ccc(NP(C)(=O)Oc2ccccc2OC)cc1 (stereo not given)	inactive: -0.59%
CN(C)CCOC(=O)C(O)(c1ccccc1)C1CCCCC1 (stereo not given)	inactive: -0.35%
COc1ccc(OP(C)(=O)Nc2cccc(Br)c2)cc1 (stereo not given)	inactive: -0.69%
O=[N+]([O-])c1cc([N+](=O)[O-])c(C(F)(F)F)c([N+](=O)[O-])c1O	inactive: -0.33%
Cc1ccccc1NP(C)(=O)Nc1ccccc1C	inactive: -0.52%
CP(=O)(Nc1ccc2c(c1)OCCO2)Oc1ccccc1 (stereo not given)	inactive: -1.42%
CCOP(C)(=S)SCC(=O)NC(C)(CC)C(=O)O (stereo not given)	inactive: 0.16%
CP(=O)(Nc1ccc(SC(F)(F)F)cc1)Oc1ccc(F)cc1 (stereo not given)	inactive: -0.13%
COc1ccc2c(c1O)-c1c(O)c(OC)cc3c1[C@H](C2)[N+](C)(C)CC3.O=[N+]([O-])c1cc([N+](=O)[O-])c([O-])c([N+](=O)[O-])c1[O-]	inactive: 0.13%
O=C(OCCN1CCN(CCOCc2ccccc2)CC1)C(O)(c1ccccc1)c1ccccc1	inactive: 0.1%
O=C(OC1CN2CCC1CC2)c1ccc([N+](=O)[O-])cc1 (stereo not given)	inactive: 2.07%
CC(C)c1ccc(OP(C)(=O)Nc2ccc(SC(F)(F)F)cc2)cc1 (stereo not given)	inactive: -0.62%
CP(=O)(Nc1ccccc1F)Oc1ccccc1 (stereo not given)	inactive: -0.62%
O=[N+]([O-])c1cc([N+](=O)[O-])c(Nc2ccc(Cl)cc2)c([N+](=O)[O-])c1	inactive: 0.63%
CCCCCOc1ccc(NP(C)(=O)Oc2ccc(Cl)cc2Cl)cc1 (stereo not given)	inactive: 1.47%
O=[N+]([O-])c1cc([N+](=O)[O-])c(OC2CCCCC2O)c([N+](=O)[O-])c1 (stereo not given)	inactive: -0.03%
CP(=O)(Nc1ccccc1)Oc1ccc(F)cc1 (stereo not given)	inactive: -0.42%
CCN(CC)CCCOC(=O)C(O)(c1ccccc1)C1CCCCC1 (stereo not given)	inactive: 0.16%
Cc1c([N+](=O)[O-])cc([N+](=O)[O-])c(Br)c1[N+](=O)[O-]	inactive: 0.33%
COc1ccc(OP(C)(=O)Nc2ccc(SC(F)(F)F)cc2)cc1 (stereo not given)	inactive: -0.38%
CCOC(=O)c1ccc(NP(C)(=O)Oc2ccc(F)cc2)cc1 (stereo not given)	inactive: 0.25%
CCN(CC)CCCNc1ccccc1[N+](=O)[O-].O=[N+]([O-])c1cc([N+](=O)[O-])c(O)c([N+](=O)[O-])c1	inactive: 0.06%
CP(=O)(OCCOc1ccccc1)OCCOc1ccccc1	inactive: -0.94%
CCCCCCCCCCCCCCCC1C[N+](C)(C)CCOP(C)(=O)O1 (stereo not given)	inactive: -0.7%

Compound	inhibition
CP(=O)(Nc1ccc(Cl)cc1Cl)Oc1ccccc1 (stereo not given)	inactive: -0.87%
COc1ccc(OP(C)(=O)Nc2ccccc2Br)cc1 (stereo not given)	inactive: 0.08%
COc1ccccc1OP(C)(=O)Nc1ccc(C)c(C)c1 (stereo not given)	inactive: -0.48%
Cc1cc(C)cc(OP(C)(=O)Nc2cccc(C(F)(F)F)c2)c1 (stereo not given)	inactive: -1.38%
O=C1C(O)=C([N+](=O)[O-])C(=O)C(O)=C1[N+](=O)[O-]	inactive: -0.12%
CCc1ccc(OP(C)(=O)O)cc1	inactive: -1.31%
COc1ccccc1OP(C)(=O)Nc1ccc(C)cc1C (stereo not given)	inactive: -0.43%
CP(=O)(Nc1ccccn1)Oc1ccccc1 (stereo not given)	inactive: -1.24%
O=[N+]([O-])c1cc([N+](=O)[O-])c(Nc2ccccn2)c([N+](=O)[O-])c1	inactive: -0.23%
Cc1c(NP(C)(=O)Oc2ccc(C(C)C)cc2)c(=O)n(-c2ccccc2)n1C (stereo not given)	inactive: -1.01%
CN(C)CCOC(=O)C(O)(c1ccccc1)C1CCCC1 (stereo not given)	inactive: -0.48%
COc1ccc(OP(C)(=O)Nc2ccccn2)cc1 (stereo not given)	inactive: -0.11%
COc1ccccc1OP(C)(=O)Nc1ccc(Br)cc1 (stereo not given)	inactive: 0.05%
CN(C)C(=O)c1c([N+](=O)[O-])cc([N+](=O)[O-])cc1[N+](=O)[O-]	inactive: -0.69%
CP(=O)(Nc1ccc(Cl)cc1)Oc1ccc(F)cc1 (stereo not given)	inactive: 0.03%
CC(C)(C)c1ccc(OP(C)(=O)O)cc1	inactive: 0.3%
COc1ccccc1OP(C)(=O)Nc1ccccc1Br (stereo not given)	inactive: 0.48%
CCc1ccc(OP(C)(=O)Nc2cccnc2)cc1 (stereo not given)	inactive: 0.53%
CP(=O)(Oc1ccccc1)N1CCOC1=O (stereo not given)	inactive: -0.89%
O=C(OCCCN1CCCC1)C(O)(c1ccccc1)C1CCCCC1 (stereo not given)	inactive: -0.96%
COc1ccccc1OP(C)(=O)Nc1c(C)n(C)n(-c2ccccc2)c1=O (stereo not given)	inactive: -0.25%
COc1ccc(OP(C)(=O)Nc2ccc(Br)cc2)cc1 (stereo not given)	inactive: 0.09%
CCN(CC)CC(O)COC(=O)C(O)(c1ccccc1)C1CCCCC1 (stereo not given)	inactive: -0.35%
CP(=O)(OC12CC3CC(CC(C3)C1)C2)OC12CC3CC(CC(C3)C1)C2	inactive: -0.65%
CCOC(=O)c1ccc(NP(C)(=O)Oc2ccc(Cl)cc2)cc1 (stereo not given)	inactive: 0.89%
